Measured values from several laboratories, pooled; numbers as filed in NIAID ChemDB.

Common to all: whole-cell or culture tests; agent: HIV-1; method: p24; measure: EC95

Rows are shuffled and stem from different studies. An empty or dashed field is not shown. ECn: concentration that inhibits the pathogen or its effect by n%.

smiles,changes,strain,setting,cells,value
COc1ccc(Cc2nc(C(=O)NCc3ccc(F)cc3)c(O)c(=O)[nH]2)cc1OC,-,IIIB,10% FBS,MT-4,>10 µM
O=C(NCc1ccc(F)cc1)c1nc(-c2cccs2)[nH]c(=O)c1O,-,-,50% human serum,MT-4,>10 µM
CCc1cc(CCc2nc3c(Cl)ccc(Cl)c3o2)c(=S)[nH]c1C,-,IIIB,-,H9,0.1 µM
CCCN(C(=O)NCc1ccccc1)C1CCN(CCC(CN(C)S(=O)(=O)c2ccccc2)c2ccccc2)CC1,-,YU2,-,PBMC,3 µM
CC(C)(c1ncc(-c2ccc(F)cc2)o1)N1CCN(C[C@@H](O)C[C@@H](Cc2nnco2)C(=O)N[C@H]2c3ccccc3OC[C@H]2O)[C@H](C(=O)NCC(F)(F)F)C1,-,NL4-3 WT,-,MT-4,0.125 µM
CN(CCc1nc(C(=O)NCc2ccc(F)cc2)c(O)c(=O)[nH]1)Cc1ccccc1,-,IIIB,50% human serum,MT-4,>10 µM
Cc1ccccc1CNC(=O)[C@H]1N(C[C@@H](O)C[C@@H](Cc2ccccc2)C(=O)N[C@H]2c3ccccc3OC[C@H]2O)CSC1(C)C,PR-K60C,-,-,MT-4,>1 µM
CC(C)(c1ncc(-c2ccc(F)cc2)o1)N1CCN(C[C@@H](O)C[C@@H](Cc2nnc(-c3ccccc3)o2)C(=O)N[C@H]2c3ccccc3OC[C@H]2O)[C@H](C(=O)NCC(F)(F)F)C1,PR-L10I M46I I54V Q58E L63P I64V V77I V82F I84V L90M I93L,K-60 Clinical isolate,-,MT-4,≤0.008 µM
C=CCN(C(=O)OCc1ccc([N+](=O)[O-])cc1)C1CCN(CC[C@](C)(CN(C)S(=O)(=O)c2ccccc2)c2ccccc2)CC1,-,YU-2 (M-tropic),-,PBMC,≤0.008 µM
CC(C)(c1cc2cnccc2o1)N1CCN(C[C@@H](O)C[C@@H](Cc2ccccc2)C(=O)N[C@H]2c3ccccc3OC[C@H]2O)[C@H](C(=O)Nc2ccccc2)C1,-,NL4-3,-,MT-4,0.25 µM
CN(C)Cc1nc(C(=O)NCc2ccc(F)cc2)c(O)c(=O)[nH]1,-,IIIB,10% FBS,MT-4,1 µM
CCCc1nnc(C[C@H](C[C@H](O)CN2CCN(C(C)(C)c3ncc(-c4ccc(F)cc4)o3)C[C@H]2C(=O)NCC(F)(F)F)C(=O)N[C@H]2c3ccccc3OC[C@H]2O)o1,-,NL4-3 WT,-,MT-4,0.016 µM
O=C(NCc1ccccc1)c1nc(-c2ccccc2)[nH]c(=O)c1O,-,-,10% FBS,MT-4,>10 µM
COc1cncc(-c2cnc(C(C)(C)N3CCN(C[C@@H](O)C[C@@H](Cc4nnc(-c5ccccc5)o4)C(=O)N[C@H]4c5ccccc5OC[C@H]4O)[C@H](C(=O)NCC(F)(F)F)C3)o2)c1,PR-L10I N37S R41K M46I I54V I62V L63P A71V V77I V82A L90M I93L,Q-60 Clinical isolate,-,MT-4,0.5 µM
CCCN(C(=O)OCc1ccc([N+](=O)[O-])cc1)C1CCN(CC[C@H](CN(C)S(=O)(=O)c2ccccc2)c2ccccc2)CC1,-,YU-2 (M-tropic),-,PBMC,0.1 µM
CC(C)(c1ncc(-c2ccc(Cl)cc2)o1)N1CCN(C[C@@H](O)C[C@@H](Cc2nnc(-c3ccccc3)o2)C(=O)N[C@H]2c3ccccc3OC[C@H]2O)[C@H](C(=O)NCC(F)(F)F)C1,PR-L10I M46I I54V Q58E L63P I64V V77I V82F I84V L90M I93L,K-60 Clinical isolate,-,MT-4,≤0.008 µM
CCN(C(=O)OCc1ccc([N+](=O)[O-])cc1)C1CCN(CC[C@](C)(CN(C)S(=O)(=O)c2ccccc2)c2ccccc2)CC1,-,YU-2 (M-tropic),-,PBMC,~0.1 µM
CC(C)(C)NC(=O)[C@@H]1C[C@@H]2CCC[C@@H]2CN1C[C@@H](O)[C@H](Cc1ccccc1)NC(=O)O[C@H]1CCS(=O)(=O)C1,-,IIIB,-,MT-4,>0.2 µM
C=CCN(C(=O)OCc1ccc([N+](=O)[O-])cc1)C1CCN(CCC(CN(C)S(=O)(=O)c2ccccc2)c2ccccc2)CC1,-,YU2,-,PBMC,0.2 µM
CC(C)(c1cc2cnccc2o1)N1CCN(C[C@@H](O)C[C@@H](Cc2ccccc2)C(=O)N[C@H]2c3ccccc3OC[C@H]2O)[C@H](C(=O)NC2CC2)C1,-,NL4-3,-,MT-4,0.062 µM
CN(C[C@@H](CCN1CCC2(CC1)CS(=O)c1ccccc12)c1cccc(Cl)c1)S(=O)(=O)c1ccccc1,-,YU-2 (M-tropic),-,PBMC,12.5 µM
CCN1CCN(C[C@@H](O)C[C@@H](Cc2ccccc2)C(=O)N[C@H]2c3ccccc3C[C@H]2O)[C@H](C(=O)NC(C)(C)C)C1,-,IIIB,-,MT-4,>0.4 µM
CC(C)(C)NC(=O)[C@@H]1C[C@@H]2CCCC[C@@H]2CN1C[C@@H](O)[C@H](Cc1ccccc1)NC(=O)[C@H](CC(N)=O)NC(=O)c1ccc2ccccc2n1,PR-M46I V82T,NL4-3,-,MT-4,0.025 µM
CC(C)CN1CCCCC1c1nc(C(=O)NCc2ccc(F)cc2)c(O)c(=O)[nH]1,-,IIIB,50% human serum,MT-4,>10 µM
CCN(C(=O)OCc1ccccc1)C1CCN(CCC(CN(C)S(=O)(=O)c2ccccc2)c2ccccc2)CC1,-,YU-2 (M-tropic),-,PBMC,12.5 µM
CCc1cc(CCc2nc3ccccc3o2)c(=O)[nH]c1C,-,-,-,MT-4,0.1 µM
CC(C)(C)CNC(=O)[C@@H]1CN(C(C)(C)c2cc3cnccc3o2)CCN1C[C@@H](O)C[C@@H](Cc1ccccc1)C(=O)N[C@H]1c2ccccc2OC[C@H]1O,-,NL4-3,-,MT-4,0.031 µM
CCCN(C(=O)OCc1ccccc1)C1CCN(CC[C@](C)(CN(C)S(=O)(=O)c2ccccc2)c2ccccc2)CC1,-,YU-2 (M-tropic),-,PBMC,~0.06 µM
CCc1cc(SCc2nc3c(Cl)ccc(Cl)c3o2)c(=O)[nH]c1C,-,IIIB,-,MT-4,0.0375 µM
CC(C)CN(C[C@@H](O)[C@H](Cc1ccccc1)NC(=O)[C@H](CC(N)=O)NC(=O)c1ccc2ccccc2n1)C(=O)NC(C)(C)C,PR-M46I,NL4-3,-,MT-4,0.2 µM
CC(C)CNC(=O)[C@@H]1CN(C(C)(C)c2cc3cnccc3o2)CCN1C[C@@H](O)C[C@@H](Cc1ccccc1)C(=O)N[C@H]1c2ccccc2OC[C@H]1O,-,NL4-3,-,MT-4,0.015 µM
CCc1cc(CCc2nc3c(F)cccc3o2)c(=O)[nH]c1C,-,IIIB,-,MT-4,0.375 µM
CN(CC(CCN1CCC(NC(=O)NCc2ccccc2)CC1)c1ccccc1)S(=O)(=O)c1ccccc1,-,YU2,-,PBMC,0.1 µM
CCc1cc(CCc2nc3ccccc3o2)c(=O)[nH]c1C,RT-K103N Y181C,A17,-,H9,100 µM
CC(C)(C)NC(=O)[C@@H]1CN(Cc2ccc(Cl)c(Cl)c2)CCN1C[C@@H](O)C[C@@H](Cc1ccccc1)C(=O)N[C@H]1c2ccccc2C[C@H]1O,-,IIIB,-,MT-4,0.2 µM
COC(=O)N(CC1CCCCC1)C1CCN(CCC(CN(C)S(=O)(=O)c2ccccc2)c2ccccc2)CC1,-,YU2,-,PBMC,25 µM
CN(CC(C)(CCN1CCC(N(CC(O)CO)C(=O)OCc2ccccc2)CC1)c1ccccc1)S(=O)(=O)c1ccccc1,-,YU-2 (M-tropic),-,PBMC,>6.3 µM
CCCc1nnc(C[C@H](C[C@H](O)CN2CCN(C(C)(C)c3ncc(-c4ccc(Cl)cc4)o3)C[C@H]2C(=O)NCC(F)(F)F)C(=O)N[C@H]2c3ccccc3OC[C@H]2O)o1,PR-L10I M46I I54V Q58E L63P I64V V77I V82F I84V L90M I93L,K-60 Clinical isolate,-,MT-4,0.016 µM
O=C(NCc1ccccc1)c1nc(-c2cccs2)[nH]c(=O)c1O,-,-,10% FBS,MT-4,>10 µM
C=CCN(C(=O)OCc1ccccc1)C1CCN(CC[C@](C)(CN(C)S(=O)(=O)c2ccccc2)c2ccccc2)CC1,-,YU-2 (M-tropic),-,PBMC,~0.075 µM

Repeating the final 3 entries:

smiles,changes,strain,setting,cells,value
CCCc1nnc(C[C@H](C[C@H](O)CN2CCN(C(C)(C)c3ncc(-c4ccc(Cl)cc4)o3)C[C@H]2C(=O)NCC(F)(F)F)C(=O)N[C@H]2c3ccccc3OC[C@H]2O)o1,PR-L10I M46I I54V Q58E L63P I64V V77I V82F I84V L90M I93L,K-60 Clinical isolate,-,MT-4,0.016 µM
O=C(NCc1ccccc1)c1nc(-c2cccs2)[nH]c(=O)c1O,-,-,10% FBS,MT-4,>10 µM
C=CCN(C(=O)OCc1ccccc1)C1CCN(CC[C@](C)(CN(C)S(=O)(=O)c2ccccc2)c2ccccc2)CC1,-,YU-2 (M-tropic),-,PBMC,~0.075 µM